The assay deals with main fungi responsible for beverage and food spoilage (yeast and mould strains). Kind of assay: Growth inhibition of yeast and mould strains in 105 g/L sucrose solution (OD after 21 days). Format: cell-based. The note with it: sucrose solution at pH 3; concentrations of 1000 ppm or less; OD below 0.2 after 21 days at 25° C.; 16 strains tested. As to the method: The antifungal activity of various flavouring ingredients was evaluated against the following yeast strains: Zygosaccharomyces rouxii (DSM70835), Pichia membranaefaciens (DSM 70369), Dekkera Bruxellensis (DSM70726), Saccharomyces cerevisiae (DSM 70869) and Candida krusei (origin: Leatherhead Food Research) and against the following moulds strains: Byssochlamys nivea, Fusarium solani, Aspergillus fumigatis, Byssochlamys fulva, Aspergillus niger, Talaromyces Harzanium, Penicillium crustosum, Penicillium digitatum, Neosartorya fischeri, Penicillium roquerforti, Fusarium oxysporum.
A 105 g/L solution of sucrose in water at pH 3±0.2 was prepared. Another sucrose solution at the same concentration at pH 5±0.2 was also prepared. The sucrose solutions were autoclaved at 121° C. for 15 minutes and the pH was re-checked to ensure it remained within the range.
Test samples were then prepared in microtiter plates. An amount of 100 μL of sucrose solution prepared above, were mixed with an inoculum of 20 μL of one fungal strain, so as to achieve a microbial level comprised between 10^2 and 10^3 cfu/mL.
The flavouring ingredient or composition was then added to the microtiter plate. […]
The optical density (OD) of each sample was measured after 21 days of incubation using a Bio-Tek Synergy™ HT Multi-Mode Microplate Reader (from Labtech International, UK). […]

Take `Cc1ccc(O)cc1C`: the “number of the main fungi responsible for beverage and food spoilage against which there is a strong antifungal effect” value is 3.

Source of the values: US20130310452A1, “ANTIFUNGAL FLAVOURING INGREDIENTS AND COMPOSITIONS” (FIRMENICH SA, priority 2011, published 2013).
